In US20220033460A1 (published 2022):

Target: DRB1*07:01
Experiment: competitive fluorescence polarization

Binder: FNFNGLTGTVLTES [FNFNGLTGTVLTES (position 541)]
- IC50: 6.08 µM
